Tested on: HIV-1MN
Assay: Effect of NOBA on intact HIV-1MN (p24, zinc, TCIU of pelleted virus)
Assay type: cell-based
Conditions: 2 hours

## NC(=O)c1cccc(N=O)c1 [NOBA, 3-nitrosobenzamide]
NOBA 0.03 mM
  p24: 90 µg/mL
NOBA 0.3 mM
  p24: 83 µg/mL
NOBA 3.0 mM
  p24: 58 µg/mL

From patent US6989263B1, “Method for identifying and using compounds that inactivate HIV-1 and other retroviruses by attacking highly conserved zinc fingers in the viral nucleocapsid protein” (The United States of America as represented by the …, priority 1994, dated 2006)
